In PubChem BioAssay (NCATS):
The entries are a selection whose mix differs from that of the whole data set. Activity calls are given as the source filed them. The call rests on the fitted dose curve; in most records, active means well fitted inhibition curve with a large enough effect; inconclusive means small, poorly fitted or top-dose-only effect; inactive means no such curve, though single readings can be large or run the other way.

Test: qHTS assay for measurement of the activity of small molecule inhibitors on Zika virus induced Caspase-3 activity in human astrocytoma cells (AID 1224859);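 further: plate controls were ZIKV-infected untreated cells for no effect and uninfected cells for full effect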
Conditions: SNB-19 ZIKV-induced caspase-3/7, luminescence, 6 h; at 92.8 µM (top of the series) unless noted
Method in brief: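 Readout is luminescence from Caspase-Glo 3/7 added after a 6 h ZIKV infection (2 FFU/cell) of compound-pretreated (1 h) SNB-19 cells; data expressed as % inhibition versus uninfected and infected wells.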

SMILES | activity change, negative = inhibition
O=[N+]([O-])c1cccc([N+](=O)[O-])c1 | inactive: -3.69%
CCOP(=O)(CC)Oc1ccc([N+](=O)[O-])cc1 (centres undefined) | inactive: -1.92% [at 45.7 µM]
Cc1cccc([N+](=O)[O-])c1[N+](=O)[O-] | inactive: -1.33%
OCCSCCO | inactive: -0.248% [at 45.7 µM]
